A mixed list of measured activities; the numbers were collected in NIAID ChemDB.

All rows: growth or infection tests; organism: Candida albicans; read-out: MFC

Rows are shuffled and stem from different studies. An empty or dashed field is not shown.

SMILES,strain or isolate,method,value
Fc1cccc(CO/N=C2/c3ccccc3OCC2n2cncn2)c1,ATCC 10231,-,>64 µg/mL
Cc1ccc(CC(Cc2ccc(-c3ccccc3)cc2)n2ccnc2)cc1,-,-,33 µM
CCC(C)CC(C)CCCCCCCCC(=O)NC1CCCNC(=O)[C@@H]2[C@@H](O)[C@@H](C)CN2C(=O)[C@H]([C@H](O)CC(N)=O)NC(=O)[C@H](CCc2ccc(O)cc2)NC(=O)[C@@H]2C[C@@H](O)CN2C(=O)[C@H]([C@@H](C)O)NC1=O,MY1055,-,0.5 µg/mL
Fc1ccc(CC(Cc2ccc(-c3ccccc3)cc2)n2ccnc2)c(F)c1,-,-,19 µM
CC1=C2[C@@H](OC(=O)/C=C/c3ccccc3)[C@H](C(C)C)CC[C@]2(C)[C@@H](O)CC1=O,ATCC 10231,-,32 µg/mL
COc1ccc(C(c2ccc(OC)cc2)n2ccnc2)cc1,-,broth dilution,>256 µg/mL
COC1CC2CCC(C)C(O)(O2)C(=O)C(=O)N2CCCCC2C(=O)OC(C(C)CC2CCC(O)C(OC)C2)CC(=O)C(C)/C=C(\C)C(O)[C@@](OC)(N(O)C(=O)OCC(C)C)C(=O)C(C)CC(C)/C=C/C=C/C=C/1C,TOR1-1/TOR1,-,>100 µg/mL
Clc1ccc(CO/N=C2/c3ccccc3OCC2n2cnnc2)cc1,ATCC 10231,-,>64 µg/mL
Fc1ccccc1CC(Cc1ccc(-c2ccccc2)cc1)n1ccnc1,-,-,19 µM
CCC(C)CC(C)CCCCCCCCC(=O)NC1C[C@H](O)[C@@H](O)NC(=O)[C@@H]2[C@@H](O)[C@@H](C)CN2C(=O)[C@H]([C@H](O)CC(N)=O)NC(=O)[C@H](C(O)[C@H](O)c2ccc(O)cc2)NC(=O)[C@@H]2C[C@@H](O)CN2C(=O)[C@H]([C@@H](C)O)NC1=O,MY1750,-,0.125 µg/mL
CCOc1ccc2nc3cc(N=C4NC(=O)/C(=C\c5ccc([N+](=O)[O-])cc5)S4)ccc3c(N)c2c1,ATCC 60193,broth dilution,1000 µM
CCCCCCCCCCCOC(=O)c1cc(O)c(O)c(O)c1,-,-,>400 µg/mL
Clc1ccc(CO/N=C2/c3ccc(Cl)cc3OCC2n2cncn2)c(Cl)c1,ATCC 10231,-,>64 µg/mL
C[C@@H]1O[C@@H](O[C@H]2[C@H](O[C@H]3CC[C@@]4(C)[C@@H](CC[C@]5(C)[C@@H]4CC=C4[C@@H]6CC(C)(C)CC[C@]6(C(=O)O)CC[C@]45C)[C@]3(C)CO)OC[C@H](O)[C@@H]2O)[C@H](O)[C@H](O)[C@H]1O,Clinical isolates,-,25 µg/mL
CC(C)(C)c1ccc(CC(Cc2ccc(-c3ccccc3)cc2)n2ccnc2)cc1,-,-,>100 µM
OC(Cn1cncn1)(Cn1cncn1)c1ccc(F)cc1F,2715,-,>100 µg/mL
COC1CC2CCC(C)C(O)(O2)C(O)C(O)N2CCCCC2C(=O)OC(C(C)CC2CCC(O)C(OC)C2)CC(=O)C(C)/C=C(\C)C(O)C(OC)C(=O)C(C)CC(C)/C=C/C=C/C=C/1C,TOR1-1/TOR1,-,>100 µg/mL
O/N=C\c1ccc(O)cc1,-,broth dilution,>7290 µM
Cc1ccc(/C=N/Nc2ccnc3cc(Cl)ccc23)cc1,-,-,60 µg/mL
C[C@@H]1CCC2(OC1)OC1CC3C4C[C@H](O)[C@H]5C[C@@H](O)CC[C@]5(C)C4CC(=O)[C@]3(C)C1[C@@H]2C,ATCC 90028,-,10 µg/mL
Clc1ccc(CO/N=C2/c3ccccc3OCC2n2cncn2)cc1,ATCC 10231,-,64 µg/mL
Clc1ccc(C(c2ccccc2)n2nnc3ccccc32)cc1,-,broth dilution,>256 µg/mL
CCCCCCSc1cc(C(N)=S)ccn1,42,-,50 µg/mL
Clc1ccc(CO/N=C2/c3ccc(Cl)cc3OCC2n2cnnc2)c(Cl)c1,ATCC 10231,-,>64 µg/mL
c1ccc(C(c2ccccc2)n2cncn2)cc1,-,broth dilution,>256 µg/mL
C[C@@H]1O[C@@H](O[C@H]2[C@H](O)[C@@H](O)C(OC3[C@H](O[C@H]4CC[C@]5(C)[C@H]6CC=C7[C@@H]8CC(C)(C)CC[C@]8(C(=O)O)CC[C@@]7(C)[C@]6(C)CC[C@H]5C4(C)C)OC[C@H](O)[C@@H]3O)O[C@@H]2CO)[C@H](O)[C@H](O)[C@H]1O,Clinical isolates,-,>100 µg/mL
Clc1ccc(CO/N=C2/c3ccccc3OCC2n2cncn2)c(Cl)c1,ATCC 10231,-,64 µg/mL
Oc1cccc(C=NNc2ccnc3cc(Cl)ccc23)c1,-,-,>200 µg/mL
c1ccc(C(c2ccccc2)n2nnc3ccccc32)cc1,-,broth dilution,>256 µg/mL
CC(C)N=C(N)c1ccc2nc(-c3ccc4c(c3)Cc3cc(-c5nc6ccc(C(N)=NC(C)C)cc6[nH]5)ccc3-4)[nH]c2c1,Isolate 3022 fluconazole-resistant,-,1.56 µg/mL
N#Cc1ccc(/C=N/Nc2ccnc3cc(Cl)ccc23)cc1,-,-,>200 µg/mL
Cc1ccnc(C(N)=Nc2ccc(-c3ccc(-c4ccc(N=C(N)c5cc(C)ccn5)cc4C)o3)c(C)c2)c1,-,-,10 µg/mL
C[C@@H]1O[C@@H](O[C@H]2[C@H](O[C@H]3CC[C@]4(C)[C@H]5CC=C6[C@@H]7CC(C)(C)CC[C@]7(C(=O)O)CC[C@@]6(C)[C@]5(C)CC[C@H]4C3(C)C)OC[C@H](O)[C@@H]2O)[C@H](O)[C@H](O)[C@H]1O,Y0109,-,>100 µg/mL
CCC(C)CC(C)CCCCCCCCC(=O)NC1C[C@H](O)[C@@H](O)NC(=O)[C@@H]2C[C@@H](O)CN2C(=O)[C@H]([C@H](O)CC(N)=O)NC(=O)[C@H](C(O)[C@H](O)c2ccc(O)cc2)NC(=O)[C@@H]2C[C@@H](O)CN2C(=O)[C@H]([C@@H](C)O)NC1=O,MY1750,-,4 µg/mL
N=C(N)c1ccc2nc(CCCc3nc4ccc(C(=N)N)cc4[nH]3)[nH]c2c1,A39,-,>100 µg/mL
CCCCCCCCCCCCCSc1cc(C(N)=S)ccn1,3a,-,100 µg/mL
CCCCCCCCCCCCCCCCOP(=O)([O-])OCC[N+](C)(C)C,-,-,4 µg/mL
COc1cc(NC(C)CCCN)c2nc(C(C)(C)C)ccc2c1Oc1cccc(C(F)(F)F)c1,-,-,>20 µg/mL
Clc1ccc(C(c2ccccc2)n2ccnc2)cc1,-,broth dilution,0.5 µg/mL
N=C(N)c1ccc2nc(-c3cccc(-c4nc5ccc(C(=N)N)cc5[nH]4)n3)[nH]c2c1,A39,-,>100 µg/mL
NC(=S)c1ccnc(SC2CCCCC2)c1,42,-,100 µg/mL
c1ccc(C(c2ccccc2)n2ccnc2)cc1,-,broth dilution,64 µg/mL
c1ccc(CO/N=C2\c3ccccc3OCC2n2cncn2)cc1,ATCC 10231,-,>64 µg/mL
O=C(c1ccccc1)C(c1ccccc1)n1cncn1,-,broth dilution,128 µg/mL
CC1(C)CC[C@]2(C(=O)O)CC[C@]3(C)C(=CC[C@@H]4[C@@]5(C)CC[C@H](OC6O[C@H](CO)[C@@H](O)[C@H](O)[C@H]6OC6O[C@H](CO)[C@@H](O)[C@H](O)[C@H]6O)C(C)(C)[C@@H]5CC[C@]43C)[C@@H]2C1,ATCC 90029,-,>100 µg/mL

A second listing of 3 rows from above:

SMILES	strain or isolate	method	value
COc1cc(NC(C)CCCN)c2nc(C(C)(C)C)ccc2c1Oc1cccc(C(F)(F)F)c1	-	-	>20 µg/mL
COC1CC2CCC(C)C(O)(O2)C(=O)C(=O)N2CCCCC2C(=O)OC(C(C)CC2CCC(O)C(OC)C2)CC(=O)C(C)/C=C(\C)C(O)[C@@](OC)(N(O)C(=O)OCC(C)C)C(=O)C(C)CC(C)/C=C/C=C/C=C/1C	TOR1-1/TOR1	-	>100 µg/mL
N=C(N)c1ccc2nc(-c3cccc(-c4nc5ccc(C(=N)N)cc5[nH]4)n3)[nH]c2c1	A39	-	>100 µg/mL